# In PubChem BioAssay AID493005 (National Center for Advancing Translational Sciences (NCATS), 2010):
# Amino acid sequences for entries named in this document (tags omitted). A change or cut given only in a name is not applied to a line headed by its entry.
# UniProt Q99816: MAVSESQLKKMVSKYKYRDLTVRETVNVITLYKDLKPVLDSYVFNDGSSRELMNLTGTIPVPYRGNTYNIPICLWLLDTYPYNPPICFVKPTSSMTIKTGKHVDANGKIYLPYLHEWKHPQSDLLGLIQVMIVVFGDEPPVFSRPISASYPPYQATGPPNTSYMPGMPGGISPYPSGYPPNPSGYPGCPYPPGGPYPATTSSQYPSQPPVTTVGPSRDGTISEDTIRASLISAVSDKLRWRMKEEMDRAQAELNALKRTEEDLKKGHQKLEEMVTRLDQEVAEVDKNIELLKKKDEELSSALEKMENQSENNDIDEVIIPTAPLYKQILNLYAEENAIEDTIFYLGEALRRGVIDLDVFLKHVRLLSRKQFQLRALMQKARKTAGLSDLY
# The entries are a selection whose mix differs from that of the whole data set. Activity calls are given as the source filed them. The call rests on the fitted dose curve; in most records, active means well fitted inhibition curve with a large enough effect in the main read-out, with a control signal flat (not every such curve was filed as active); inconclusive means small, poorly fitted or top-dose-only effect, or effect the other way, or a change in a side signal; inactive means no such curve, though single readings can be large or run the other way.
# Molecular target: Tumor susceptibility gene 101 protein (Homo sapiens) (UniProt Q99816)
# Assay: qHTS Assay for Iinhibitors of HIV-1 Budding by Blocking the Interaction of PTAP/TSG101; further: % of control where 0% means no effect
# Details: Fluorescence polarization, FITC-PTAP peptide / Tsg101 binding; at 115 µM (top of the series)
# From the text: NIH Molecular Libraries Probe Production Network [MLPCN] NIH Chemical Genomics Center [NCGC] MLPCN Grant: 1 R03 MH087464-01A1 PI Name: Dr. Eric Freed, NCI NCGC Assay Overview: Stages of the HIV-1 replication cycle, specifically virus assembly and release, provide underexploited targets for the development of novel antiviral inhibitors. The late stages of HIV-1 replication are mediated by the Gag precursor protein, Pr55Gag. Expression of Pr55Gag is both necessary and sufficient for the production of virus-like particles from Gag-expressing cells. The Gag protein hijacks key host proteins involved in endocytic machinery of the host cell to promote endosomal processing and viral budding. The budding process requires a direct interaction between a […] (PTAP) motif in the p6 domain of Gag and the cellular endosomal sorting protein known as Tsg101. In this way, the Gag PTAP motif promotes the host cells to recruit viral particles to the plasma membrane where the new viral particles are released, effectively turning the host cells into viral factories. A fluorescence anisotropy assay has been developed to quantitatively measure the PTAP-Tsg101 interaction which can be used to screen for inhibitors of this interaction.
# NCGC Assay Protocol Summary: Two uL of the Tsg101 binding domain in buffer (10 mM HEPES pH 7.5; 0.15 M NaCl, 0.01% Tween 20; 3 mM EDTA;0.1 mM TCEP) was dispensed into Greiner black MB 1536-well plates (final concentration 10 uM). Then, 23 nL of compounds or DMSO were delivered to each well using a pin tool. Finally, 2 uL of a FITC-labeled peptide containing the PTAP motif (1) in the same buffer was dispensed (50 nM final concentration) and the binding was allowed to proceed for 20 min. at r.t. Fluorescent polarization was determined using FITC excitation and polarized emission filters on a Perkin Elmer Viewlux. Keywords: Tsg101, PTAP, Gag, HIV, fluorescent polarization, MLSMR, MLPCN, NIH Roadmap, qHTS, NCGC
row,Compound,"activity change, negative = inhibition"
1,CCN(N=Nc1nonc1N)c1nonc1N,inactive: -0.137%
2,Nc1cccc2ccc([As](=O)(O)O)cc12,inactive: 70.1%
3,Cc1ccc(NP(=O)(Oc2ccccc2F)Oc2ccccc2F)nc1,inactive: -5.05%
4,CN(C(=O)Cc1ccc(Cl)c(Cl)c1)[C@H]1CCCC[C@@H]1N1CCCC1,inactive: -1%
5,Cc1cc(SC(NC(=O)c2ccc(F)cc2)C(Cl)(Cl)Cl)ncn1 (centres undefined),inactive: -0.332%
6,CCOP(=O)(Nc1ccccc1)OCC,inactive: -2.26%
7,CCCC1OP(N)(=O)OCC1CC (centres undefined),inactive: -5.06%
8,CC(=O)Nc1ccc([As](=O)(O)O)cc1,inactive: 4.19%
9,O=C(O)c1ccccc1[As](=O)(O)O,inactive: -0.605%
10,O=P(Nc1nc2ccc(Cl)cc2s1)(c1ccccc1)c1ccccc1,inactive: -2.71%
11,Nc1cc(N)c2nonc2c1[N+](=O)[O-],inactive: -1.71%
12,CC(C)CC(=O)NC(Sc1ccc(Cl)cc1)C(Cl)(Cl)Cl (centres undefined),inactive: -4.91%
13,O=C(NC(Sc1ccncn1)C(Cl)(Cl)Cl)c1ccccc1 (centres undefined),inactive: -0.624%
14,Oc1ccccc1CNc1ccccn1,inactive: -4.91%
15,Cc1ccc(OP(=O)(Nc2nccs2)Oc2ccc(C)cc2)cc1,inactive: -0.518%
16,COc1ccccc1OP(=O)(Nc1ccc(C)cn1)Oc1ccccc1OC,inactive: 5.82%
17,CN1CCCC(OC(=O)C(c2ccccc2)c2ccccc2)C1 (centres undefined),inactive: -3.97%
18,Clc1ccc(Cl)c(NC2=NCC(CBr)S2)c1 (centres undefined),inactive: -0.157%
19,NC(=O)c1cc([N+](=O)[O-])cc([N+](=O)[O-])c1N,inactive: -11.4%
20,Cc1ccc(N/C(=N/P(=O)(N2CCOCC2)N2CCOCC2)N2CCOCC2)cc1,inactive: 0.436%
21,CN(C(=O)Cc1ccc(Cl)c(Cl)c1)[C@H]1CCCC[C@H]1N1CCCC1,inactive: 1%
22,CN(C)C(=O)OCCc1n(C)cc[n+]1C,inactive: -3.26%
23,CC(C)=N/N=C(\N)N[N+](=O)[O-],inactive: -3.4%
24,CC1CCN(C(=O)Oc2c(Cl)cc(Cl)c3cccnc23)CC1,inactive: -1.61%
25,C[N+]1=C2C=CC=CC=C2SC12C([N+](=O)[O-])=CC([N+](=O)[O-])=C[C-]2[N+](=O)[O-] (centres undefined),inactive: -3.12%

row,Compound,"activity change, negative = inhibition"
1,Nc1ccc([As](=O)(O)c2ccc(N)cc2)cc1,inactive: -3.6%
2,CCN(/C(=N/P(=O)(N1CCOCC1)N1CCOCC1)N1CCOCC1)c1ccc(OC)cc1,inactive: -2.45%
3,O=[N+]([O-])c1cccc2n[nH]nc12,inactive: -1.83%
4,CC(=O)N1C2C3N(C(C)=O)C1C1N(C(C)=O)C(C(N1C(C)=O)N3C(C)=O)N2C(C)=O,inactive: -2.62%
5,CCc1nc2c(n1)c1c(non1O)c1c2no[n+]1[O-],inactive: -7.16%
6,O=[N+]([O-])c1cc([N+](=O)[O-])c(CCNc2ccccc2)c([N+](=O)[O-])c1,inactive: 1.77%
7,Cc1ccc(NP(=O)(Oc2ccccc2)Oc2ccccc2)nc1,inactive: -1.55%
8,COc1ccc(C2=NCC(CBr)S2)cc1 (centres undefined),inactive: -2.35%
9,COC(=O)C1(C)COP(=O)(Nc2ccccc2)OC1 (centres undefined),inactive: -0.753%
10,O=[N+]([O-])c1cccc(NC2=NCC(CBr)S2)c1 (centres undefined),inactive: -0.219%
11,O=C(O)CNc1ccc([As](=O)(O)O)cc1,inactive: -2.17%
12,CC(C)(C)C(=O)NC(Sc1ccncn1)C(Cl)(Cl)Cl (centres undefined),inactive: -0.341%
13,O=[N+]([O-])c1ncn(CCn2ncnc2[N+](=O)[O-])n1,inactive: 1.05%
14,O=C(Nc1cc([As](=O)(O)O)ccc1O)c1ccccc1,inactive: -3.94%
15,O=P1(N(CCCl)CCCl)OCCCS1 (centres undefined),inactive: -0.0822%
16,C(Cc1nn[nH]n1)Cc1nn[nH]n1,inactive: 1.32%
17,Nc1ccc([As](=O)(O)c2ccc([N+](=O)[O-])cc2)cc1,inactive: -11.3%
18,O=C(OC1CN2CCC1CC2)c1cccc(Cl)c1 (centres undefined),inactive: -3.37%
19,O=[N+]([O-])c1ccc(O)c(/C=N/Nc2ccc([N+](=O)[O-])cc2[N+](=O)[O-])c1,inactive: -7.37%
20,CC(=O)NC(SC(=S)N(C)C)C(Cl)(Cl)Cl (centres undefined),inactive: -5.41%
21,O=[N+]([O-])c1ncn(CCn2cnc([N+](=O)[O-])n2)n1,inactive: -6.12%
22,O=[As](O)(c1ccccc1)c1ccc(O)cc1,inactive: -0.625%
23,C[C@H]1OP(=O)(Oc2ccccc2)[C@H](O)[C@H](O)[C@H]1N=[N+]=[N-] (some centres undefined),inactive: -3.05%
24,O=P(Nc1nc2ccccc2s1)(c1ccccc1)c1ccccc1,inactive: 0.505%
25,COc1ccc(N)c([N+](=O)[O-])c1[N+](=O)[O-],inactive: -8.51%

row,Compound,"activity change, negative = inhibition"
1,O=P(Nc1ccccn1)(c1ccc(Br)cc1)c1ccc(Br)cc1,inactive: -3.33%
2,CN(C)C1(CNC(=O)c2ccc(Cl)c(S(N)(=O)=O)c2)CCCCC1,inactive: 0.643%
3,c1nnnn1CCn1cnnn1,inactive: 1.64%
4,CC(C)C(=O)NC(Sc1ccccc1)C(Cl)(Cl)Cl (centres undefined),inactive: 0.11%
5,O=P(Nc1nccs1)(c1ccccc1)c1ccccc1,inactive: -4.45%
6,CC(=O)Nc1ccc(Oc2c([N+](=O)[O-])cc([N+](=O)[O-])cc2[N+](=O)[O-])cc1,inactive: -5.88%
7,CC(=O)Nc1ccc([As](=O)(O)O)c(O)c1,inactive: -2.01%
8,COC(=O)C1(C)COP(=O)(NCc2ccccc2)OC1 (centres undefined),inactive: -1.97%
9,CC(=O)c1ccc(N2CC2c2ccncc2)cc1 (centres undefined),inactive: -4.21%
10,N#C/C(=C\c1ccc(N(CCBr)CCBr)cc1)C(N)=O,inactive: -2.87%
11,C[C@H]1OP(=O)(Oc2ccccc2)C[C@@H]2O[C@@H]21 (some centres undefined),inactive: -6.06%
12,C[C@@H]1C=CCP(=O)(Oc2ccccc2)O1 (some centres undefined),inactive: -1.19%
13,Cc1ccccc1CN(C)C(=O)COC(=O)C(O)(c1ccccc1)c1ccccc1,inactive: -4.74%
14,CCc1cc(O)c([N+](=O)[O-])c(C)c1[N+](=O)[O-],inactive: -2.92%
15,CC(C)(C)C(=O)NC(Sc1ccccc1)C(Cl)(Cl)Cl (centres undefined),inactive: 6.44%
16,CCOc1ccc(C2=NCC(CBr)S2)cc1 (centres undefined),inactive: -2.18%
17,O=P1(Nc2nc3ccc(Cl)cc3s2)COc2ccccc2O1 (centres undefined),inactive: -3.11%
18,O=c1c2cc([N+](=O)[O-])ccc2[nH]c2c([N+](=O)[O-])cc([N+](=O)[O-])cc12,inactive: -4.76%
19,CN(C)C(=O)Oc1noc2ccccc12,inactive: 0.427%
20,CC(NC(=O)COC(=O)C(O)(c1ccccc1)c1ccccc1)c1ccccc1 (centres undefined),inactive: -1.21%
21,Cc1ccccc1OP(=O)(Nc1ccccn1)Oc1ccccc1C,inactive: -0.9%
22,CC(=O)NC(SC(=S)N(CC(C)C)CC(C)C)C(Cl)(Cl)Cl (centres undefined),inactive: -7.57%
23,Cc1ccc(OP(=O)(Nc2ccccn2)Oc2ccc(C)cc2)cc1,inactive: -5.96%
24,COC(=O)c1cc2c(s1)N=C(c1ccccc1)N(C)P2(=O)N1CCOCC1 (centres undefined),inactive: -2.26%
25,CCC(=O)N1C2C3N(C(=O)CC)C1C1N(C(=O)CC)C(C(N1C(=O)CC)N3C(=O)CC)N2C(=O)CC,inactive: -3.97%

row,Compound,"activity change, negative = inhibition"
1,O=C(OC1CN2CCC1CC2)c1ccccc1 (centres undefined),inactive: 2.54%
2,O=P1(N(CCCl)CCCl)OCCC2CCCCN21 (centres undefined),inactive: -1.49%
3,CCNC(=S)/N=C(\N)N[N+](=O)[O-],inactive: 2.59%
4,O=C(NC1CCS(=O)(=O)C1)NP(=S)(Oc1ccccc1)Oc1ccccc1 (centres undefined),inactive: 0.764%
5,Cc1ccc(NP(=O)(Oc2cccc(C)c2)Oc2cccc(C)c2)nc1,inactive: -0.146%
6,c1ccc(-c2nn[nH]n2)c(-c2nn[nH]n2)c1,inactive: -0.629%
7,CN(C(=O)Cc1ccc(Cl)c(Cl)c1)[C@H]1CC[C@@]2(CCCO2)C[C@@H]1N1CCCC1,inactive: -0.96%
8,O=[N+]([O-])c1ccc2c(c1)nnn2O,inactive: -8.04%
9,CN(C)C(=O)c1cc([N+](=O)[O-])cc2c1-c1c(cc([N+](=O)[O-])cc1[N+](=O)[O-])C2=O,inactive: -2.72%
10,CN(C(=O)Cc1ccccc1)[C@@H]1CC[C@]2(CCCO2)C[C@H]1N1CCCC1,inactive: -0.315%
11,CCOP1(=S)c2c(C)nn(CCC#N)c2N=C(c2ccc(F)cc2)N1C (centres undefined),inactive: -8.2%
12,N#CCCN(C(=O)COC(=O)C(O)(c1ccccc1)c1ccccc1)c1ccc(F)cc1,inactive: -2.1%
13,NC(=O)Nc1ccc([As](=O)(O)O)cc1,inactive: 0.953%
14,Nc1ccccc1[As](=O)(O)c1ccccc1,inactive: -4.14%
15,O=C(O)COc1ccc([As](=O)(O)O)cc1[N+](=O)[O-],inactive: -2.13%
16,CS(=O)(=O)c1cc([N+](=O)[O-])c2no[n+]([O-])c2c1,inactive: -8.68%
17,O=P(Nc1nccs1)(Oc1ccccc1)Oc1ccccc1,inactive: -6.34%
18,O=P(Nc1nccs1)(c1ccccc1)c1nc2ccccc2s1 (centres undefined),inactive: -1.2%
19,CCOP1(=S)c2c(C)nn(CCC#N)c2N=C(c2ccccc2F)N1C (centres undefined),inactive: -11.6%
20,CCOP(=O)(Nc1cccc2ccccc12)OCC,inactive: -0.351%
21,COc1cc(C2NCCC3(OCCO3)C2(C)C)cc(OC)c1OC (centres undefined),inactive: -0.887%
22,CCCOP(=S)(Nc1nc(N)cc(=O)[nH]1)OCCC,inactive: -0.876%
23,Cc1ccc(NCCc2c([N+](=O)[O-])cc([N+](=O)[O-])cc2[N+](=O)[O-])cc1,inactive: -3.86%
24,Nc1cccc2c([As](=O)(O)O)cccc12,inactive: -11.6%
